# Biological target: HLA-A*3301 (Homo sapiens, UniProt P04439, A270S/D185E/E176V/E277Q/E87N/F33T/G231S/H175R/I121M/I218V/I322F/K168Q/K210R/L300P/L318F/M331R/P217A/Q86R/Q94H/R138Q/T323A/T345S/T97I/V358M/Y195H)
# Experiment: purified HLA class I binding assay, A*3301
# Conditions: HIV A03 supermotif peptides, Table IX; unit not given
row,Sequence,A*3301 binding information
1,QARYLAVER,0.0320
2,TVQCTIIGIR,0.0330
3,QMVIIQAISPR,0.1000
4,TVQCTIIGIK,0.0017

# Same assay, conditions: HIV A03 supermotif peptides; binding value, no unit given
row,Sequence,A*3301 binding information
1,KLTEERWNK,0.0006

# Same assay, conditions: Table IX, HIV A03 super motif peptides; binding value, unit not given
row,Sequence,A*3301 binding information
1,YLAWVPAIIK,0.8800
2,DIQIKELQK,0.0018
3,FTTPDKKIIQK,0.0013
4,WMGYELIIPDK,0.0006
5,ASCDKCQLK,0.0009
